Paper PMC5659129, “Determinants of the Inhibition of DprE1 and CYP2C9 by Antitubercular Thiophenes” (Angewandte Chemie (International Ed. in English), 2017)

Sequences of proteins named here, by UniProt entry; tags and fusion partners are left off.
UniProt A0R607, whole entry Y313C: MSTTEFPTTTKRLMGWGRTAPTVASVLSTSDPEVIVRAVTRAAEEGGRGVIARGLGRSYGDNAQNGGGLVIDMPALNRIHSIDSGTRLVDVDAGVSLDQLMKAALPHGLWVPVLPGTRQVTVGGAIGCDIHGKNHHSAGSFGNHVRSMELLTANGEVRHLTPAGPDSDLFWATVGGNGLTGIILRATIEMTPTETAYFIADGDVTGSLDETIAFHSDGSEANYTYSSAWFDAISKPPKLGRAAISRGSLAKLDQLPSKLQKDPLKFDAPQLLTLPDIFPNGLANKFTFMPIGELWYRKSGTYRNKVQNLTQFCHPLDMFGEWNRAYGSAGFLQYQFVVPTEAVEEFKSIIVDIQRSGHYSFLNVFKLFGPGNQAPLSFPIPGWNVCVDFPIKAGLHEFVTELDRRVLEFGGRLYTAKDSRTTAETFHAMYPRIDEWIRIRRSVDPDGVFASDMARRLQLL

Biological target: M. smegmatis DprE1 Y321C (Mycolicibacterium smegmatis, UniProt A0R607, Y313C)
Assay: biochemical

Question: How did the IC50 turn out when `CCOC(=O)NC(=O)c1ccsc1NC(=O)c1nc2cnccc2s1` [TCA007] was run?
Answer: The IC50 was 0.13 ± 0.021 µM.

Question: Which IC50 does the source give for `CCOC(=O)NC(=O)c1ccsc1NC(=O)c1nc2ccccc2s1` [TCA1] here?
Answer: Its IC50 is 0.24 ± 0.052 µM.
